Experimental data as given in publication PMC5923120, “Acylhydrazones as Antifungal Agents Targeting the Synthesis of Fungal Sphingolipids” (Antimicrobial Agents and Chemotherapy, 2018).

System: A549
Assay: In vitro toxicity (MTT), A549
Format: cell-based, human
Conditions: ratio of IC50 against mammalian cell line and MIC80 against C. neoformans
Description: The murine macrophage cell line J774 and human cancer cell lines A549 and HepG2 were maintained in DMEM containing 10% fetal bovine serum (FBS) and 1% penicillin-streptomycin. At passage 7, 10^5 cells/well in DMEM containing 10% FBS were transferred into 96-well plates and cultured for 14 h for the cells to adhere to the wells. The compounds were added to the cells at concentrations ranging from 0.03 to 128 μg/ml. The wells without the compound served as controls. […] After 24 or 48 h, the supernatant was removed and 50 μl of 5-mg/ml 3-(4,5-dimethylthiazol-2-yl)-2,5-diphenyltetrazoliumbromide (MTT) solution in phosphate-buffered saline (PBS) was added to each well. The plates were incubated for an additional 4 h. The formazan crystal formed inside the cell was dissolved by adding 50 μl of dimethyl sulfoxide (DMSO). The optical density was measured at 570 nm.

SMILES | SI of A549 or HepG2
O=C(N/N=C/c1cc(Br)ccc1O)c1cc(Br)cc(Br)c1O [D17] | 32
O=C(N/N=C/c1cc(Br)ccc1O)c1cccc(Br)c1 [D2] | 64
